Anti-infective test results gathered from many reports (values: NIAID ChemDB through PubChem).

All rows: growth or infection tests; species: Candida albicans; measure: MIC

Neighbouring rows are from separate reports.

| smiles | strain | read by | result |
|---|---|---|---|
| CN(CCCC#CC(C)(C)C)c1cccc2c1CCC(=O)N2 | Clinical isolate 13 |  | 31.25 µg/mL |
| N#CC(=C1CCCCCC1)c1nc2ccccc2o1 |  |  | <200 µg/mL |
| C=CCS/C(N)=N/NC(=O)c1ccc(Cl)cc1Cl |  |  | >100 µg/mL |
| C[C@@H]1CC(=O)N(c2ccccc2)C1=O | ATCC 10231 | broth dilution / turbidity | 62.5 µg/mL |
| C=CCS/C(N)=N/NC(=O)c1cc(OC)c(OC)c(OC)c1 |  |  | >100 µg/mL |
| Nc1[nH]c(=O)ncc1F |  | broth dilution | 3.2 µg/mL |
| CC1CC(=O)N(c2ccccc2)C1=O | ATCC 10231 | broth dilution / turbidity | 125 µg/mL |
| CC1S[C@H](c2ccc3c(c2)OCO3)N(c2nc(N3CCOCC3)n[nH]2)C1=O | A39 | broth dilution | 12.2 µg/mL |
| CS/C(N)=N/NC(=O)c1ccc([N+](=O)[O-])cc1 |  |  | >100 µg/mL |
| CCCCCCCCC/C=C/C(O)CC(O)CC(=O)OC1CC(OC(CC)C(C)C(O)C(C)C(O)C(C)C2OC(=O)/C=C/C(C)C(O)CC(O)CCCC(O)CCC(C)C(OC3OC(CO)C(O)C(O)C3O)C(=O)C3(O)OC(CC(O)CC(O)CC(O)CCCC(O)C4OC4C2C)CC(O)C3O)OC(C)C1OC | IFO 1594 |  | 1.9 µg/mL |
| Cc1nc2c(s1)C(=O)C(Nc1ccc(Br)cc1)=C(Cl)C2=O | KCCM 50235 | broth dilution | 3.2 µg/mL |
| O=c1c2nn(-c3ccccn3)c(-c3ccccc3)c2c(-c2ccccc2)nn1-c1cc(Cl)ccc1Cl | ATCC 27541 |  | <0.0024 µg/mL |
| CCOc1cc2c(cc1F)n([O-])c(C)c(S(=O)(=O)c1ccccc1)[n+]2=O | Clinical isolate 22 |  | 15.6 µg/mL |
| Cc1ccnc(C(N)=Nc2ccc(-c3ccc(-c4ccc(N=C(N)c5cc(C)ccn5)cc4C)o3)c(C)c2)c1 |  |  | ≤1 µg/mL |
| COc1ccc(C(=O)N/N=C(\N)SC)cc1 |  |  | >100 µg/mL |
| Cc1c(Sc2ccccc2)[n+](=O)c2cc(C(F)(F)F)ccc2n1[O-] | Clinical isolate 5 |  | 15.6 µg/mL |
| Cn1nc(C(=O)O)c(/C(=N/Nc2ccccn2)c2ccccc2)c1-c1ccccc1 | ATCC 27541 |  | 0.62 µg/mL |
| CCCC[C@@H](C)/C=C(C)/C=C(\C)C(=O)N/C(=C/[C@@](C)(O)/C=C/C=C/C=C/C(=O)NC1=C(O)CCC1=O)C(=O)[C@@H]1CO1 | 4 | broth dilution | 25 µM |
| CCOC(=O)/C(N=Nc1ccc(C(=O)N/N=C\c2ccc(F)cc2)cc1)=C(\C)O | ATCC 2091 |  | 125 µg/mL |
| N#Cc1c(-c2ccccc2)cc(=O)n2c1oc1ccccc12 |  |  | <200 µg/mL |
| CS/C(N)=N/NC(=O)c1ccc(F)cc1 |  |  | >100 µg/mL |
| C[C@@H]1CC(=O)N(c2ccc([N+](=O)[O-])cc2)C1=O | ATCC 10231 | broth dilution / turbidity | 62.5 µg/mL |
| Cc1ccc([C@H]2SCC(=O)N2c2nc(N3CCN(C)CC3)n[nH]2)cc1 | A39 | broth dilution | 10 µg/mL |
| CCOC(=O)/C(N=Nc1ccc(-c2n[nH]c(=O)n2-c2ccccc2)cc1)=C(\C)O | ATCC 2091 |  | 62.5 µg/mL |
| CCCCn1c(N)c(-c2nc3ccccc3o2)sc1=S |  |  | >200 µg/mL |
| CCc1c(OC)ccc2sc(C)nc12 | KCCM 50235 | broth dilution | 100 µg/mL |
| N/C(=N\NC(=O)c1ccc(Cl)cc1Cl)SCc1cccc(Cl)c1 |  |  | >100 µg/mL |
| CC1S[C@H](c2ccccc2)N(c2nc(N3CCOCC3)n[nH]2)C1=O | A39 | broth dilution | 25 µg/mL |
| C[C@@H]1CC(=O)N(CCCCc2ccccc2)C1=O | ATCC 10231 | broth dilution / turbidity | 31.3 µg/mL |
| COc1cc(/C=C(\C#N)c2nc3ccccc3o2)ccc1O |  |  | >200 µg/mL |
| COc1cc(C(=O)N/N=C(\N)SC)cc(OC)c1OC |  |  | >100 µg/mL |
| COC(=O)c1c(N)oc2c1cc(O)c1sc(C)nc12 | KCCM 50235 | broth dilution | 100 µg/mL |
| Clc1ccc(COC(Cn2ccnc2)c2ccc(Cl)cc2Cl)c(Cl)c1 | ATCC 2091 |  | 0.05 µg/mL |
| N#CC(C(=S)NCc1ccccc1)c1nc2ccccc2o1 |  |  | >200 µg/mL |
| Cn1nc2c(=O)n(C)nc(-c3ccccc3)c2c1-c1ccccc1 | ATCC 27541 |  | 0.31 µg/mL |
| Cc1c(S(=O)(=O)c2ccccc2)[n+](=O)c2cc(Cl)ccc2n1[O-] | Clinical isolate 13 |  | 31.25 µg/mL |
| N#C/C(=C1\SC(=O)CN1c1ccc(Cl)cc1)c1nc2ccccc2o1 |  |  | >200 µg/mL |
| CS/C(N)=N/NC(=O)c1ccc(C)cc1 |  |  | >100 µg/mL |
| CC1CC(=O)N(CCCc2ccccc2)C1=O | ATCC 10231 | broth dilution / turbidity | 125 µg/mL |
| Cc1nc2c(s1)C(=O)C(Nc1ccccc1)=C(Cl)C2=O | KCCM 50235 | broth dilution | 12.5 µg/mL |
| CCOC(=O)/C(N=Nc1ccc(-c2n[nH]c(=S)n2CC)cc1)=C(\C)O | ATCC 2091 |  | 125 µg/mL |
| CC1CC(=O)N(c2ccc(F)cc2F)C1=O | ATCC 10231 | broth dilution / turbidity | 250 µg/mL |
| Cn1nc2c(=O)n(-c3ccc(C(=O)O)cc3)nc(-c3ccccc3)c2c1-c1ccccc1 | ATCC 27541 |  | 0.15 µg/mL |
| COc1cc(O)c2c(c1)C(=O)c1c(cc3c(c1O)-c1c(cc(C)c(C(=O)NC(CO)C(=O)O)c1O)[C@H](OC1OC(C)C(N(C)C)C(OC4OCC(O)C(O)C4O)C1O)[C@H]3O)C2=O | 10 isolates |  | 3.1–6.3 µg/mL |

For reference, 6 entries again:

{"smiles": "COc1cc(C(=O)N/N=C(\\N)SC)cc(OC)c1OC", "result": ">100 µg/mL"}
{"smiles": "Cc1ccnc(C(N)=Nc2ccc(-c3ccc(-c4ccc(N=C(N)c5cc(C)ccn5)cc4C)o3)c(C)c2)c1", "result": "≤1 µg/mL"}
{"smiles": "N/C(=N\\NC(=O)c1ccc(Cl)cc1Cl)SCc1cccc(Cl)c1", "result": ">100 µg/mL"}
{"smiles": "N#CC(C(=S)NCc1ccccc1)c1nc2ccccc2o1", "result": ">200 µg/mL"}
{"smiles": "CCCCCCCCC/C=C/C(O)CC(O)CC(=O)OC1CC(OC(CC)C(C)C(O)C(C)C(O)C(C)C2OC(=O)/C=C/C(C)C(O)CC(O)CCCC(O)CCC(C)C(OC3OC(CO)C(O)C(O)C3O)C(=O)C3(O)OC(CC(O)CC(O)CC(O)CCCC(O)C4OC4C2C)CC(O)C3O)OC(C)C1OC", "strain": "IFO 1594", "result": "1.9 µg/mL"}
{"smiles": "CCCC[C@@H](C)/C=C(C)/C=C(\\C)C(=O)N/C(=C/[C@@](C)(O)/C=C/C=C/C=C/C(=O)NC1=C(O)CCC1=O)C(=O)[C@@H]1CO1", "strain": "4", "read by": "broth dilution", "result": "25 µM"}

Two numbers with a dash give a range or band. Blank or dashed fields: not listed here.